Pooled drug test results. Numbers come from NIAID ChemDB, via PubChem.

All rows: whole-cell or culture tests; species: Aspergillus flavus

An empty or dashed field is not shown. Rows are shuffled and stem from different studies. A number after MIC or MFC names an inhibition level or a share of isolates.

SMILES | measure | method | strain or isolate | result
CC(C)CC(O)C(=O)O | MFC100 | broth dilution / visual reading | MRCM 23135 | >72000 µg/mL
CCCCCOc1ccc(-c2cc(-c3ccc(C(=O)N[C@H]4C[C@@H](O)[C@@H](O)NC(=O)[C@@H]5[C@@H](O)[C@@H](C)CN5C(=O)[C@H]([C@H](O)CC(N)=O)NC(=O)[C@H]([C@H](O)[C@@H](O)c5ccc(O)c(OS(=O)(=O)O)c5)NC(=O)[C@@H]5C[C@@H](O)CN5C(=O)[C@H]([C@@H](C)O)NC4=O)cc3)no2)cc1 | MIC50 | broth dilution |  | 0.03 µg/mL
FC(F)(F)c1nc(OCc2nc(-c3ccc(Cl)cc3)n[nH]2)c2ccccc2n1 | MIC100 |  | MTCC 277 | 25 µg/mL
C[C@@H](c1ncncc1F)[C@](O)(Cn1cncn1)c1ccc(F)cc1F | MIC50 | broth dilution |  | 0.5 µg/mL
Cc1ccccc1OCc1n[nH]c(=S)n1N1C(=O)CSC12CCc1ccccc12 | MIC100 |  |  | 25 µg/mL
c1coc(-c2n[nH]c(COc3ncnc4ccccc34)n2)c1 | MIC100 |  | MTCC 277 | 6.25 µg/mL
c1ccc(C(c2ccccc2)n2cnc3ccccc32)cc1 | MFC | broth dilution |  | >256 µg/mL
O=C1CSC2(CCc3ccccc32)N1n1c(-c2cccnc2)n[nH]c1=S | MIC100 |  |  | 6.25 µg/mL
Clc1ccc(C(c2ccccc2)n2cncn2)cc1 | MFC | broth dilution |  | 256 µg/mL
O=C1CSC2(CCc3ccccc32)N1n1c(-c2ccc(Cl)cc2Cl)n[nH]c1=S | MIC100 |  |  | 12.5 µg/mL
Cc1nc(OCc2nc(-c3ccc(F)cc3)n[nH]2)c2ccccc2n1 | MIC100 |  | MTCC 277 | 50 µg/mL
Clc1ccc(C(c2ccccc2)n2nnc3ccccc32)cc1 | MFC | broth dilution |  | >256 µg/mL
Oc1ccc(-c2n[nH]c(COc3ncnc4ccccc34)n2)cc1 | MIC100 |  | MTCC 277 | 50 µg/mL
CCCCCCCCOC(=O)[C@]1(O)C[C@@H](O)[C@@H](O)[C@H](OC(=O)/C=C/c2ccc(O)c(O)c2)C1 | MIC50 | absorbance | AMP 9 | 500 µg/mL
COc1ccc(C(c2ccc(OC)cc2)n2ccnc2)cc1 | MFC | broth dilution |  | >256 µg/mL
Clc1ccc(-c2n[nH]c(COc3ncnc4ccccc34)n2)cc1 | MIC100 |  | MTCC 277 | 25 µg/mL
Cc1ccc(OCc2n[nH]c(=S)n2N2C(=O)CSC23CCc2ccccc23)cc1 | MIC100 |  |  | 12.5 µg/mL
O=C(c1ccccc1)C(c1ccccc1)n1cncn1 | MFC | broth dilution |  | 256 µg/mL
CC(=O)N1CCN(c2ccc(OC[C@H]3CO[C@](Cn4ccnc4)(c4ccc(Cl)cc4Cl)O3)cc2)CC1 | MIC90 |  | Species complex | 1 µg/mL
CC(C)C[C@H](N)C(=O)O | MFC100 | broth dilution | MRCM 23135 | >18000 µg/mL
Clc1ccc(C(c2ccccc2)N2CCN(CCn3cncn3)CC2)cc1 | MFC | broth dilution |  | >256 µg/mL